From ChEMBL document CHEMBL6109097, “Structure-based design of novel 2,4,5-trisubstituted pyrimidine derivatives as potent HIV-1 NNRTIs by exploiting the tolerant regions in NNTRIs binding pocket” (Eur J Med Chem, 2025) come the findings set out here.

pIC50: −log10 of the molar value.

In this experiment the target is Human immunodeficiency virus type 1 reverse transcriptase (Human immunodeficiency virus 1, UniProt Q72547). In words: Inhibition of wild type HIV-1 reverse transcriptase assessed as reduction in biotin-dUTP incorporation in cDNA preincubated with compound for 1 hr in presence of biotin-labeled dNTPs by ELISA.

In the case of `Cc1cc(C#N)cc(C)c1Oc1nc(Nc2ccc(C#N)cc2)nc(N)c1Br` [ETRAVIRINE], the pIC50 is 7.70.
